Results deposited as PubChem BioAssay AID1259414 (Drosophila RNAi Screening Center, 2018).
The screen tested about 24,000 reagents; this is an unselected part of those that have a named target and a result. In the full data, about 1,210 (5%) got an active call. 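Inactive calls also include excluded dsRNAs with several or no targets, genes unexpressed in JW18, and well A1, regardless of score.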 A plus sign joins genes that one reagent is predicted to hit.

Purpose: 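Genome-wide screen for host control of endosymbiont load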 (primary screen)
System: Drosophila JW18 cells infected with Wolbachia
Reagent: long dsRNA against Drosophila genes, 0.25 µg dsRNA per well of a 384-well plate
Timing: 5 days
Conditions: cells persistently infected with Wolbachia before knock-down; no added drug
Measured: 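Imaged fluorescence in situ signal for Wolbachia 23S rRNA per DAPI-counted host cell, given as a robust z-score within each plate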
Reading the numbers: Wolbachia per cell robust z: higher = more Wolbachia per host cell than the plate typical
Active means: 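Active if absolute robust z reaches 1.5 in two or more of three replicates, leaving out multi- or no-target dsRNAs, genes unexpressed in JW18 and A1 wells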

The first 3 records as a preview:
| target gene | PubChem SID | Wolbachia per cell robust z, rep 1 | Wolbachia per cell robust z, rep 2 | Wolbachia per cell robust z, rep 3 | outcome |
| --- | --- | --- | --- | --- | --- |
| ATPsynF + lncRNA:sphinx | SID104196983 | -0.501 | 1.05 | 0.784 | inactive |
| Sgsh | SID104194563 | 0.633 | 0.644 | -0.432 | inactive |
| l(2)k10201 + CG33774 | SID104215439 | -1.55 | 1.63 | 0.242 | inactive |

The list itself, repeating the preview:
| target gene | PubChem SID | Wolbachia per cell robust z, rep 1 | Wolbachia per cell robust z, rep 2 | Wolbachia per cell robust z, rep 3 | outcome |
| --- | --- | --- | --- | --- | --- |
| ATPsynF + lncRNA:sphinx | SID104196983 | -0.501 | 1.05 | 0.784 | inactive |
| Sgsh | SID104194563 | 0.633 | 0.644 | -0.432 | inactive |
| l(2)k10201 + CG33774 | SID104215439 | -1.55 | 1.63 | 0.242 | inactive |
| CG12121 | SID104197608 | -1.59 | -0.307 | -1.93 | active |
| RtGEF | SID104183396 | -2.34 | -0.577 | -1.06 | inactive |
| RtGEF | SID104201743 | 0.608 | 0.327 | 0.692 | inactive |
| AMPdeam | SID104199158 | 0.337 | 0.166 | -1.53 | inactive |
| AMPdeam | SID104199160 | 0.694 | 1.02 | 0.945 | inactive |
| AMPdeam | SID104199519 | 0.821 | -0.22 | -4.02 | inactive |
| Pyroxd1 | SID104181890 | 0.573 | -5.69 | 0.461 | inactive |
| Fam92 | SID104182744 | -0.681 | -0.618 | -0.748 | inactive |
| Fam92 | SID104207781 | -0.763 | 0.601 | 0.507 | inactive |
| Coq2 | SID104196308 | 1.23 | -0.202 | -0.199 | inactive |
| Coq2 | SID104201137 | 1.25 | 0.457 | -1.07 | inactive |
| Coq2 | SID104208203 | -1.11 | 0.267 | 0.795 | inactive |
| CG5445 | SID104202537 | 0.164 | 1.51 | -0.0166 | inactive |
| CG32182 | SID104189300 | -8.82 | 0.055 | 0.341 | inactive |
| CG32182 | SID104203276 | -1.7 | -0.576 | -1.12 | inactive |
| CG6432 | SID104195831 | 1.61 | -9.51 | 2.45 | inactive |
| Parg | SID104198488 | 0.441 | 0.21 | 0.457 | inactive |
| CG5196 | SID104195527 | 0.0755 | -1.61 | -1 | inactive |
| CG5196 | SID104205503 | 0.778 | 0.133 | -1.45 | inactive |
| CG5681 | SID104182668 | 0.711 | 0.8 | 0.497 | inactive |
| CG5681 | SID104202994 | -0.0158 | 0.428 | 0.871 | inactive |
| Kots | SID104196373 | 0.329 | 0.638 | -1.89 | inactive |
| Mi-2 + Su(Tpl) | SID104189432 | 0.353 | 0.654 | 0.0973 | inactive |
| CG43783 + orb2 | SID104190334 | 0.963 | -1.04 | -0.276 | inactive |
| CG43783 + orb2 | SID104204241 | -0.626 | -3.13 | -0.386 | inactive |
